Experimental data reported in patent publication US8980917B2, “Methods for treating or preventing brain infections” (The Johns Hopkins University, priority 2008, dated 2015).

Tested on: E. coli K1 strain RS218
Experiment: Mouse model of experimental hematogenous E. coli meningitis (5-LO-/- and wild-type 129SvEv mice)
Type: in vivo
Details: wild type mice; oral 400 μg/mouse one hour before bacterial injection; compared to vehicle control
Text: Female 5-LO−/− (129-Alox5^tm1Fun/J) and strain-matched (129SvEv) wild-type mice, 9˜12 week old and 18˜26 gm, were used (23). […] Most animals receiving 1×10^7 CFUs, however, died between one and two hour of intravenous inoculation. Based on these observations, we examined and compared E. coli K1 penetration into the brain at one hour following intravenous administration of 1×10^7 CFUs of strain RS218 in 5-LO−/− and wild type mice.
Mice were anesthetized with pentobarbital sodium given subcutaneously at 50 mg/kg and each mouse received 1×10^7 CFU of E. coli RS218 in 100 μl PBS via the tail vein. One hour later, mouse chest was cut open, and blood from right ventricle was collected and plated for bacterial counts (CFUs). The mouse was, then, perfused with a mammalian Ringer's solution by transcardiac perfusion through a 23-gauge needle inserted into the left ventricle of the heart under the perfusion pressure of about 100 mmHg. The perfusate exited through a cut in the right atrium. The composition of the mammalian Ringer solution was: (in mM) 132 NaCl, 4.6 KCl, 2 CaCl2, 1.2 MgSO4, 5.5 glucose, 5.0 NaHCO3, and 20 HEPES and Na-HEPES, containing 10 mg/ml BSA; pH of the Ringer solution was maintained at 7.40-7.45 by adjustment of the ratio of Na-HEPES to HEPES. […] Bacterial penetration into the brain was also expressed as (brain CFUs per gm/blood CFUs per ml)×100. […]

Compound: CN(C)C(=O)CCSC(SCCC(=O)O)c1cccc(/C=C/c2ccc3ccc(Cl)cc3n2)c1 (stereo not shown) [MK571]
- bacterial counts in the blood, spleens and kidneys: did not affect the bacterial counts in the blood, spleens and kidneys
